We go through 1 substance from publication PMC11203576.

Assay [1] addresses SARS-CoV-2 spike protein RBD, Alpha variant, sfGFP fusion (SARS-CoV-2) (UniProt P0DTC2). The assay can be described thus: SPR; […] (12.5, 25, 50 or 100 mM) for 30 min at room temperature.
In assay [2] the target is SARS-CoV-2 spike protein RBD, original (wild-type), sfGFP fusion (SARS-CoV-2) (UniProt P0DTC2). Described as above.

For the substance Jacalin (natural protein), the percent inhibition of binding by 12.5 mM galactose in assay [1] stood at 90%; in assay [2] it was 60%.
